Assays:
[1] = target: T1, CODA806 (Y115D, L131Q in SEQ ID NO: 33) (human (chimera of human α7-nAChR and …))
T1 chain: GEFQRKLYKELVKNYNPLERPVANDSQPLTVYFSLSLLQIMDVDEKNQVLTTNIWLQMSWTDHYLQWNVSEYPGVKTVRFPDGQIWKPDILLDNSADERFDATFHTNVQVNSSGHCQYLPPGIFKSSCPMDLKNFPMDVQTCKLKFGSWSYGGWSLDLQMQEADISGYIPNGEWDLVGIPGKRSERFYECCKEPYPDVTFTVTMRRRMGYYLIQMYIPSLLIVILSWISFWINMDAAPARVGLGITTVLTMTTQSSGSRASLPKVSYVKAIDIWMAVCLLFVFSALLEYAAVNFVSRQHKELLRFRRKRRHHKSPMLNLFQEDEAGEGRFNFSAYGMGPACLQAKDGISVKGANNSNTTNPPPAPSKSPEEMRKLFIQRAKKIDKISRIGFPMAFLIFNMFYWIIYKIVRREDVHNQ

[2] = target: T2, CODA1045 (R101W, Y210V in SEQ ID NO: 33) (human (chimera of human α7-nAChR and …))
T2 chain: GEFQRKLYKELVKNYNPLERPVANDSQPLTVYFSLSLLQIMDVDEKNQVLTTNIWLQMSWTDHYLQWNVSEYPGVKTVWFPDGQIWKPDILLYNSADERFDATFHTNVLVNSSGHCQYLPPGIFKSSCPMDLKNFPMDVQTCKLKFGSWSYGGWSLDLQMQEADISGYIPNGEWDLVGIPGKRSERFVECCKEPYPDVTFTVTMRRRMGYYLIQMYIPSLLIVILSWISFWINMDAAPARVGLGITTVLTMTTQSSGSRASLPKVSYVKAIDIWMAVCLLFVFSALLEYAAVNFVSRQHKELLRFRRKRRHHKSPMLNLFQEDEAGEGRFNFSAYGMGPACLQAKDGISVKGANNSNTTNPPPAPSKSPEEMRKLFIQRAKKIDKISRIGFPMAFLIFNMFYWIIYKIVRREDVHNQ

[3] = target: T3, CODA1053 (R101M, L131A in SEQ ID NO: 33) (human (chimera of human α7-nAChR and …))
T3 chain: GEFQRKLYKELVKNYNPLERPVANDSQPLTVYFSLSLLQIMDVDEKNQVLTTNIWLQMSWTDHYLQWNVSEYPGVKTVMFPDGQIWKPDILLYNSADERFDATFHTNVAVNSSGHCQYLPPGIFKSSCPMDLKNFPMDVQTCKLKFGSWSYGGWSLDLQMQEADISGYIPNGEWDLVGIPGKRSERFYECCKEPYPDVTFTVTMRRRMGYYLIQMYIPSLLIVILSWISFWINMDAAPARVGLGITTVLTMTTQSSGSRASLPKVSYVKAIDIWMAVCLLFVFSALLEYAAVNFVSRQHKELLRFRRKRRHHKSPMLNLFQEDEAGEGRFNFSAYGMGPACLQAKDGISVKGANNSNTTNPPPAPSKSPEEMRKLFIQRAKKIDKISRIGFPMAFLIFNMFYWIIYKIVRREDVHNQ

[4] = target: T4, CODA1054 (R101M, L131F in SEQ ID NO: 33) (human (chimera of human α7-nAChR and …))
T4 chain: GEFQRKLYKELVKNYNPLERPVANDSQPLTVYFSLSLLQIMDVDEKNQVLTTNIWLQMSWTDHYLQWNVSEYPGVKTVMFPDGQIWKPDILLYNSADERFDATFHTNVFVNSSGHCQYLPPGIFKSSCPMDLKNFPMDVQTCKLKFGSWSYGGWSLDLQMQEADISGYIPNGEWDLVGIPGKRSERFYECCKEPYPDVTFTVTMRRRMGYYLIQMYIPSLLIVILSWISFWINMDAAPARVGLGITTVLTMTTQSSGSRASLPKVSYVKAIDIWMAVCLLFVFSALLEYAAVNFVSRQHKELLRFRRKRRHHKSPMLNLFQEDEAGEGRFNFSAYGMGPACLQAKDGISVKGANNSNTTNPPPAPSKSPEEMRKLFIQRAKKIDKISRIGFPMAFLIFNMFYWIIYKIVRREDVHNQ

[5] = target: T5, CODA335 (L131T in SEQ ID NO: 33) (human (chimera of human α7-nAChR and …))
T5 chain: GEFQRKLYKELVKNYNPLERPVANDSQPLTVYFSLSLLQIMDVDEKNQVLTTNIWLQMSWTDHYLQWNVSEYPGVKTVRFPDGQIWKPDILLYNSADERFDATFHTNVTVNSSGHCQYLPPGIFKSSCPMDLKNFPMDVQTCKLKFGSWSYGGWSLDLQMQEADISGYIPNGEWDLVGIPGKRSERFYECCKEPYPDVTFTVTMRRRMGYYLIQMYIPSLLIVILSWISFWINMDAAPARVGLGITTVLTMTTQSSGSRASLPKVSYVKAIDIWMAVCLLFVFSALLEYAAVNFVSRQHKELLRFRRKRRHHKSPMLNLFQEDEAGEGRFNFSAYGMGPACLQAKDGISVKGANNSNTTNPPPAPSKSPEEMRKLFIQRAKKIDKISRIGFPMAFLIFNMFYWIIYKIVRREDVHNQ

[6] = target: T6, CODA377 (S172D in SEQ ID NO: 33) (human (chimera of human α7-nAChR and …))
T6 chain: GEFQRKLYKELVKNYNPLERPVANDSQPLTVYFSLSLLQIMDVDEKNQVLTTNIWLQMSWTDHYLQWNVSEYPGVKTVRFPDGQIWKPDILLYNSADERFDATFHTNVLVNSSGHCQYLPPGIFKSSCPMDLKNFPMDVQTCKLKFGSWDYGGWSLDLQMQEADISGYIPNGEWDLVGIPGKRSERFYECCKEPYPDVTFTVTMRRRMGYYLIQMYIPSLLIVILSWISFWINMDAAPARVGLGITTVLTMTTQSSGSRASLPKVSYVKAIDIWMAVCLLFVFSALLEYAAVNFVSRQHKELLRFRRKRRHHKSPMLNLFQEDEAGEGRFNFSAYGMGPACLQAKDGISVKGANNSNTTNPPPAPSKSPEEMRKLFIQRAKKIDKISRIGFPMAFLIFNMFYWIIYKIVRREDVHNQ

B1: α-bungarotoxin conjugated to Alexa Fluor 647 (ligand)
chain: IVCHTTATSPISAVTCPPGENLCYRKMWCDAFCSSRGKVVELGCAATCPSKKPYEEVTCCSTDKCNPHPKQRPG
Q: What does the source list for B1?
A: Normalized AB % [1]: 0.33 ratio to SEQ ID NO: 33 control; Normalized AB MFI [2]: 0.35 ratio to SEQ ID NO: 33 control; Normalized AB % [3]: 0.91 ratio to SEQ ID NO: 33 control; Normalized AB MFI [3]: 0.9 ratio to SEQ ID NO: 33 control; Normalized AB MFI [4]: 0.82 ratio to SEQ ID NO: 33 control; Normalized AB % [5]: 1.65 ratio to SEQ ID NO: 33 control; Normalized AB % [6]: 0.5 ratio to SEQ ID NO: 33 control; Normalized AB MFI [6]: 0.9 ratio to SEQ ID NO: 33 control

From patent US20240317834A1, “COMPOSITIONS AND METHODS FOR NEUROLOGICAL DISEASES” (CODA BIOTHERAPEUTICS, published 2024)
